Pooled drug test results. Numbers come from NIAID ChemDB, via PubChem.

Common to all: tests on isolated targets

Fold resistance has wild type as its base. ICn is the concentration giving n% inhibition. Rows are shuffled and stem from different studies. Blank or dashed fields: not listed here. Inhibition is in % at the dose shown (toxicity tests: loss of growth or viability).

| compound | target | species | endpoint | strain or isolate | read by | tested at | changes | result |
|---|---|---|---|---|---|---|---|---|
| CC[C@H]1C=CCC[C@@]2(C[C@@H]3CC[C@@H]4[C@H](C(=O)OCCCCCC(=O)N(CCC[NH3+])C[C@@H](O)CC[NH3+])[C@]5(CCC[C@@H](C)O5)NC(=[N+]34)N2)O1 | Nef | HIV-1 | IC50 | NL4-3 | ELISA |  |  | <5 µM |
| Cc1cc(SC2=C(O)C[C@@](CCc3ccc(O)cc3)(C(C)C)OC2=O)c(C(C)(C)C)cc1CO | Protease | HIV-1 | fold resistance |  | HPLC / absorbance |  | PR-V82F I84V | <3 |
| CCOCn1c(Cc2ccccc2)c(C(C)C)c(=O)[nH]c1=O | Reverse transcriptase | HIV-2 | IC50 | EHO | nucleotide incorporation |  | RT-S102L E219D | >1656 µM |
| CC(C)C(NC(=O)[C@@H](NC(=O)OCc1ccccc1)C(C)C)C(F)(F)C(=O)C(CC1CCCCC1)NC(=O)[C@@H](NC(=O)OCc1ccccc1)C(C)C | Protease | HIV-1 | inhibition |  | fluorescence | 0.001 µM |  | 70% |
| Cc1cc(SC2=C(O)CC(CCc3ccc(O)cc3)(C3CCCCC3)OC2=O)c(C(C)(C)C)cc1CO | Protease | HIV-1 | fold resistance |  | HPLC / absorbance |  | PR-V32I I84V | 40 |
| C=CCOC(=O)C1=C(CCCCC[C@@H](C)O[Si](C)(C)C(C)(C)C)NC2=[N+]3[C@H](CC[C@@H]13)C[C@H](C)N2 | Nef | HIV-1 | inhibition | NL4-3 | ELISA | 5 µM |  | 94.7% |
| CN(C)CCCNC(=O)c1cc(NC(=O)c2cc(NC(=O)c3cc(NC(=O)c4ccc(C(=O)Nc5cc(C(=O)Nc6cc(C(=O)Nc7cc(C(=O)NCCCN(C)C)n(C)c7)n(C)c6)n(C)c5)cc4)cn3C)cn2C)cn1C | Integrase | HIV-2 | IC50 |  | 3′ processing |  |  | 0.27 µM |
| O=c1c2ccccc2sn1-c1ccccc1 | Capsid | HIV-1 | IC50 |  | FRET / fluorescence |  |  | 4.7 µM |
| COc1ccc2c(c1)N(C(=O)OC(C)C)[C@@H](CSC)C(=S)N2 | Reverse transcriptase | HIV | fold resistance |  | RT activity |  | RT-D67N K70R T215F K219Q L100I | 2.17 |
| C[C@H](N)C(=O)O.[Na+] | Capsid | HIV-1 | IC50 |  | p24 / ELISA |  |  | 0.36 µM |
| CC(C)[C@H](NC(=O)NCc1ccccn1)C(=O)N[C@@H](Cc1ccccc1)C(O)[C@H](Cc1ccccc1)NC(=O)[C@@H](NC(=O)NCc1ccccn1)C(C)C | Protease | HIV-1 | inhibition |  | fluorescence | 0.001 µM |  | 33% |
| CC(C)[C@H](NC(=O)c1ccc2ccccc2n1)C(=O)N[C@@H](Cc1ccccc1)[C@H](O)CN1CC[C@@H](OCc2ccncc2)C[C@H]1C(=O)NC(C)(C)C | Protease | HIV-2 | IC50 |  | substrate cleavage / HPLC |  |  | 0.01 µM |
| CCCCCCCCC[C@@H]1C[C@@H]2CC[C@H]3C(C(=O)OC(C)(C)C)=C(C)NC(=[N+]23)N1 | Nef | HIV-1 | inhibition | NL4-3 | ELISA | 5 µM |  | 102.9% |
| CN(C)CCCNC(=O)c1cc(NC(=O)c2cc(NC(=O)c3cc(NC(=O)c4ccccc4C(=O)O)cn3C)cn2C)cn1C | Integrase | HIV-2 | IC50 |  | 3′ processing |  |  | >100 µM |
| CCOC(=O)C(C(=O)OCC)c1cn(S(=O)(=O)c2ccc(C)cc2)c2ccc(NC(=O)c3ccc(F)cc3Cl)cc12 | Integrase | HIV-1 | fold resistance |  | strand transfer / fluorescence |  | G140S | 1 |
| NC[C@@H]1O[C@H](O[C@H]2[C@@H](O)[C@H](O[C@@H]3[C@@H](O)[C@H](N)C[C@H](N)[C@H]3O[C@H]3O[C@H](CN)[C@@H](O)[C@H](O)[C@H]3N)O[C@@H]2CO)[C@H](N)[C@@H](O)[C@@H]1O | Tat:TAR/LTR | HIV-1 | IC50 |  | RNase H / fluorescence |  |  | 1.26 µM |
| CC(C)[C@H](NC(=O)Cc1cccnc1)C(=O)N[C@@H](Cc1ccccc1)[C@@H](O)[C@H](O)[C@H](Cc1ccccc1)NC(=O)[C@@H](NC(=O)Cc1cccnc1)C(C)C | Protease | HIV-1 | inhibition |  | fluorescence | 0.01 µM |  | 62% |
| Cc1ccc(S(=O)(=O)n2cc(C(C(=O)O)C(=O)O)c3cc(NC(=O)c4cccc(C)c4O)ccc32)cc1 | Integrase | HIV-1 | fold resistance |  | strand transfer / fluorescence |  | G140S | 0.9 |
| CCCCCCCCC[C@@H]1C[C@@H]2CCC3=C(C(=O)O[C@H](C)CCCCC[C@@H]4C[C@@H]5CC[C@@H]6C[C@H](C)NC(=[N+]65)N4)[C@@H](C)NC(=[N+]32)N1 | Nef | HIV-1 | inhibition | NL4-3 | ELISA | 5 µM |  | 82.5% |
| CC(=O)c1ccc(C)cc1NC(C(N)=O)c1c(Cl)cccc1Cl | Reverse transcriptase | HIV-2 | IC50 | ROD | nucleotide incorporation |  |  | 1384 µM |
| Cc1ccc(S(=O)(=O)n2cc(C(=O)/C=C3\OC(C)(C)OC3=O)c3cc(Br)ccc32)cc1 | Integrase | HIV-1 | fold resistance |  | strand transfer / fluorescence |  | Y143R | 0.8 |
| CC[C@H](C)[C@H](N)C(=O)O.[Na+] | Capsid | HIV-1 | IC50 |  | p24 / ELISA |  |  | 0.51 µM |
| CC(C)[C@H](NC(=O)Cn1ccnc1)C(=O)N[C@@H](Cc1ccccc1)C(O)[C@H](Cc1ccccc1)NC(=O)[C@@H](NC(=O)OCc1ccccc1)C(C)C | Protease | HIV-1 | inhibition |  | fluorescence | 0.01 µM |  | 31% |
| O=C(NCCc1ccc(O)c(O)c1)c1cc2cc(O)c(O)cc2[nH]1 | RNase H + Reverse transcriptase | HIV-1 | IC50 |  | RNase H / fluorescence |  |  | 17 µM |
| CC[C@H]1C(=O)Nc2ccc(F)cc2N1C(=O)OC(C)C | Reverse transcriptase | HIV | fold resistance |  | nucleotide incorporation / radiometric |  | RT-P140A | 0.91 |
| O=C(NCCNC(=O)c1cc2cc(O)c(O)cc2[nH]1)c1cc2cc(O)c(O)cc2[nH]1 | RNase H + Reverse transcriptase | HIV-1 | IC50 |  | RNase H / fluorescence |  |  | 24 µM |
| CC(C)[C@H](NC(=O)OCc1ccccc1)C(=O)N[C@@H](Cc1ccccc1)[C@H](O)[C@H](Cc1ccccc1)NC(=O)[C@@H](NC(=O)c1cccnc1)C(C)C | Protease | HIV-1 | inhibition |  | fluorescence | 0.0025 µM |  | 59% |
| Nc1nc2c(ncn2[C@H]2CC[C@@H](COP(=O)(O)OP(=O)(O)OP(=O)(O)O)O2)c(=O)[nH]1 | Reverse transcriptase | HIV | fold resistance |  | nucleotide incorporation / radiometric |  | RT-N137A | 4 |
| Cc1cc(SC2=C(O)C[C@@](CCc3ccc(N)cc3)(C(C)C)OC2=O)c(C(C)(C)C)cc1CO | Protease | HIV-1 | fold resistance |  | HPLC / absorbance |  | PR-V32I I84V | 14 |
| CN(C)CCCNC(=O)c1cc(NC(=O)c2cc(NC(=O)c3cc(NC(=O)c4cccc(C(=O)Nc5cc(C(=O)Nc6cc(C(=O)Nc7cc(C(=O)NCCCN(C)C)n(C)c7)n(C)c6)n(C)c5)n4)cn3C)cn2C)cn1C | Integrase | HIV-2 | IC50 |  | 3′ processing |  |  | >100 µM |
| CC(C)=CCOc1cc(NC(=S)c2ccoc2C)ccc1Cl | Reverse transcriptase | HIV | IC50 |  | nucleotide incorporation / radiometric |  | RT-N137K | 0.04 µM |
| CC(C)[C@H](NC(=O)CCN1CCOCC1)C(=O)N[C@@H](Cc1ccccc1)[C@@H](O)[C@H](O)[C@H](Cc1ccccc1)NC(=O)[C@@H](NC(=O)CCN1CCOCC1)C(C)C | Protease | HIV-1 | inhibition |  | fluorescence | 0.1 µM |  | 82% |
| COC(=O)C(Cc1ccccc1)NC(=O)[C@@H](NC(=O)[C@@H](C[C@H](O)[C@H](CC1CCCCC1)NC(=O)[C@@H](NC(=O)[C@H](Cc1ccccc1)CS(=O)(=O)C(C)(C)C)C(C)C)C(C)C)C(C)C | Reverse transcriptase | HIV-2 | IC50 | EHO | nucleotide incorporation |  |  | >1553 µM |
| CN(C)CCCNC(=O)c1cc(NC(=O)c2cc(NC(=O)c3cc(NC(=O)c4ncccc4C(=O)O)cn3C)cn2C)cn1C | Integrase | HIV-2 | IC50 |  | 3′ processing |  |  | >100 µM |
| O=C(O)C(C(=O)O)c1c[nH]c2ccc([N+](=O)[O-])cc12 | Integrase | HIV-1 | fold resistance |  | strand transfer / fluorescence |  | G140S | 0.8 |

For reference, 3 entries again:

O=C(NCCNC(=O)c1cc2cc(O)c(O)cc2[nH]1)c1cc2cc(O)c(O)cc2[nH]1 ; target: RNase H + Reverse transcriptase ; species: HIV-1 ; endpoint: IC50 ; read by: RNase H / fluorescence ; result: 24 µM
CC(C)[C@H](NC(=O)CCN1CCOCC1)C(=O)N[C@@H](Cc1ccccc1)[C@@H](O)[C@H](O)[C@H](Cc1ccccc1)NC(=O)[C@@H](NC(=O)CCN1CCOCC1)C(C)C ; target: Protease ; species: HIV-1 ; endpoint: inhibition ; read by: fluorescence ; tested at: 0.1 µM ; result: 82%
CCOCn1c(Cc2ccccc2)c(C(C)C)c(=O)[nH]c1=O ; target: Reverse transcriptase ; species: HIV-2 ; endpoint: IC50 ; strain or isolate: EHO ; read by: nucleotide incorporation ; changes: RT-S102L E219D ; result: >1656 µM